Anti-infective test results gathered from many reports (values: NIAID ChemDB through PubChem).

Common to all: cytotoxicity tests; cell line: PBMC; measure: CC50

An empty or dashed field is not shown. CCn is the concentration with n% toxicity to the cells. Neighbouring rows are from separate reports.

structure,method,value
O=C(NCCc1ccc2c(n1)NCCC2)Oc1ccc(Br)cc1,-,8.4 µM
C=C(C)C12OCOC1C1C3OC3(CO)C(O)C3(O)C(=O)C(C)=CC3C1(O/C=C/C=C/CCC)C(C)C2OC(=O)c1ccccc1,fluorescence,>15 µM
Cc1nc2ccccc2c(-c2ccc(Cl)cc2)c1[C@H](OC(C)(C)C)C(=O)O,-,136 µM
CCCc1ccc(OP(=O)(N[C@@H](C)C(=O)OC)OC[C@@H]2OC[C@H](n3cc(C)c(=O)[nH]c3=O)O2)cc1,MTT,25.6 µM
Cc1ccc(S(=O)(=O)N(CC(C)C)C[C@@H]2O[C@@H]2[C@H](Cc2ccccc2)NC(=O)C(CC(N)=O)NC(=O)c2ccc3ccccc3n2)cc1,-,>10 µM
Cc1ccnc2c1NC(=O)c1cccnc1N2C1CC1,XTT,>1000 µM
O=C(NCCc1ccc(Cl)c(Cl)c1)NCCc1ccc2c(n1)NCCC2,-,1.8 µM
C[Si](O)(O[Si](C)(CCCn1cnc2c(N)ncnc21)c1ccccc1)c1ccccc1,-,>100 µM
Cc1cn([C@H]2C=C[C@@H](COC(=O)NCCc3ccccn3)O2)c(=O)[nH]c1=O,tetrazolium,>100 µM
CC(C)=CC1Oc2cc(O)ccc2-c2oc3cc4c(c(O)c3c(=O)c21)C=CC(C)(C)O4,-,84.6 µM
CC(C)C(Cc1ccccc1)NC(=O)C[C@@H]1O[C@@H]1[C@H](Cc1ccccc1)NC(=O)[C@@H](NC(=O)NCc1ccco1)C(C)(C)S(C)(=O)=O,-,>10 µM
CN(C)CCNc1nc(-c2ccc(SCCN(C)C)cc2)cc(-c2cccs2)n1,-,10 µM
Nc1ccn([C@H]2O[C@@H](CO)CC2(F)F)c(=O)n1,-,>100 µM
Cc1cn([C@@H]2C[C@@H](F)[C@H](CO)O2)c(=O)[nH]c1=O,-,>100 µM
COC(=O)[C@H](C)NP(=O)(OC[C@@H]1OC[C@H](n2cc(C)c(=O)[nH]c2=O)O1)Oc1cccc2ccccc12,MTT,>100 µM
NC(=NCCCCCCN=C(N)/N=C(\N)N1CCN(c2cc3c(cc2F)c(=O)c(C(=O)O)cn3C2CC2)CC1)/N=C(\N)N1CCN(c2cc3c(cc2F)c(=O)c(C(=O)O)cn3C2CC2)CC1,XTT,100 µg/mL
CCCCCCCCCCCCCCCCCCOCCOP(=O)(O)CO[C@H](CO)Cn1cnc2c(N)ncnc21,flow cytometry,16.5 µM
COc1ccc(S(=O)(=O)NCCc2ccc3c(n2)NCCC3)cc1OC,-,50 µM
Nc1nc(=O)n([C@@H]2O[C@@H](CO)CC2(F)F)cc1I,-,>100 µM
CN(C)CCSc1cccc(-c2ccnc(-c3cccc(SCCN(C)C)c3)n2)c1,-,100 µM
COC(=O)[C@H](NP(=O)(OC[C@@H]1OC[C@H](n2cc(C)c(=O)[nH]c2=O)O1)Oc1ccccc1)C(C)C,MTT,>100 µM
O=C(NCCc1ccc2c(n1)NCCC2)Nc1cccnc1Oc1ccccc1,-,50 µM
Nc1ncnc2c1ncn2[C@@H]1C=C(CO)[C@@H](O)[C@H]1O,-,9.99 µM
COc1c2ccoc2c(OCC=C(C)C)c2oc(=O)ccc12,-,21.3 µM
Nc1nccc2c1ncn2[C@@H]1O[C@H](CO)[C@@H](O)[C@H]1O,-,9.97 µM
Cc1cn([C@H]2C=C[C@@H](COC(=O)NCCc3ccccc3)O2)c(=O)[nH]c1=O,tetrazolium,>100 µM
CN(C)CCNc1nc(-c2cc3ccccc3s2)c2ccccc2n1,-,100 µM
CCCCCCCCCCCCCCCCCCOCCOP(=O)(O)CO[C@H](CO)Cn1cnc2c(=O)[nH]c(N)nc21,flow cytometry,21.7 µM
COc1c(C)c(O)c(C(=O)C(C)C)c(O)c1Cc1c(O)c(C)c(O)c2c1OC(C)(C)CC2=O,-,1.3 µM
C/C(=N\NC(=O)c1ccccc1)c1cccc(/C(C)=N/NC(=O)c2ccccc2)n1,MTT,85.92 µM
O=C(NCCc1ccc2c(n1)NCCC2)Nc1ccc(Cl)nc1,-,0.09 µM
COc1ccc(CCNC(=O)OC[C@@H]2C=C[C@H](n3cc(C)c(=O)[nH]c3=O)O2)cc1,tetrazolium,>100 µM
COC(=O)[C@H](C)NP(=O)(OC[C@@H]1OC[C@H](n2cc(C)c(=O)[nH]c2=O)O1)Oc1ccc(CC(C)(C)C)cc1,MTT,15.4 µM
COc1ccc(CNC(=O)NCCc2ccc3c(n2)NCCC3)cc1,-,50 µM
O=C(CN1c2c(-c3ccccc3)n[nH]c2-c2ccccc2S1(=O)=O)N/N=C/c1cccc([N+](=O)[O-])c1,-,22 µM
C=C1CN(S(=O)(=O)c2ccc(C)cc2)CCCN(Cc2ccccc2)CCCN(S(=O)(=O)c2ccc(C)cc2)C1,-,73 µM
Nc1nc2c(ccn2[C@H]2C=C[C@@H](CO)C2)c(=O)[nH]1,-,>100 µM
Nc1ncnc2c1ncn2[C@@H]1CC[C@H](CO)O1,-,>100 µM
Cc1cn([C@H]2C=C[C@@H](COC(=O)NCCc3ccccc3Cl)O2)c(=O)[nH]c1=O,tetrazolium,53.2 µM
CCN1C(=O)NC(=O)C(C(C)C)C1CC1CC(C)CC(C#N)C1=O,MTT,>1000 µM
CN(C)CCSc1cccc(-c2cc(-c3cccc(SCCN(C)C)c3)nc(SCCN(C)C)n2)c1,-,10 µM
COC(=O)[C@@H](Cc1ccccc1)NP(=O)(OC[C@@H]1OC[C@H](n2cc(C)c(=O)[nH]c2=O)O1)Oc1ccccc1,MTT,40.1 µM
CC(C)C(Cc1ccccc1)NC(=O)C[C@@H]1O[C@@H]1[C@H](Cc1ccccc1)NC(=O)[C@@H](NC(=O)OCc1ccco1)C(C)(C)S(C)(=O)=O,-,>10 µM
CC(C)=CCC/C(C)=C/COc1ccc2ccc(=O)oc2c1,-,46.8 µM
Cc1cc(C)cc(Cn2c(=O)ccn(Cc3c(F)cccc3F)c2=O)c1,-,326 µM
CC(C)=CCOc1ccc2ccc(=O)oc2c1CC(=O)C(C)C,-,96.8 µM
CN(C)CCSc1cccc(-c2cc(-c3cccc(SCCN(C)C)c3)ncn2)c1,-,10 µM
NC(=O)c1cccc(N=O)c1,-,50 µM
c1csc(-c2cc(-c3cccs3)nc(N3CCOCC3)n2)c1,-,>100 µM
Cc1ccc(S(=O)(=O)NC[C@@H]2O[C@@H]2[C@H](Cc2ccccc2)NC(=O)C(CC(N)=O)NC(=O)c2ccc3ccccc3n2)cc1,-,>10 µM
Cc1cc(C)cc(Cn2c(=O)ccn(CC#N)c2=O)c1,-,>464 µM
CC(C)CC(=O)N[C@H](C(=O)N[C@@H](Cc1ccccc1)[C@H]1O[C@H]1CC(=O)NC(Cc1ccccc1)C(C)C)C(C)(C)S(C)(=O)=O,-,>10 µM
OCCNc1nc(-c2cccs2)cc(-c2cccs2)n1,-,100 µM
Cc1ccc(Cn2c(=O)ccn(CC#N)c2=O)cc1C,-,434 µM
COC(=O)[C@H](C)NP(=O)(OC[C@@H]1OC[C@H](n2cc(C)c(=O)[nH]c2=O)O1)Oc1ccc(Br)cc1,MTT,32 µM
Cc1cn([C@H]2C=C[C@@H](COC(=O)NCCc3ccc(Br)cc3)O2)c(=O)[nH]c1=O,tetrazolium,>100 µM
Nc1ncnc2c1ncn2[C@H]1O[C@@H](CO)CC1(F)F,-,>100 µM
NCCNc1nc(-c2ccco2)cc(-c2cc3ccccc3s2)n1,-,10 µM

The last 8 rows once more:

structure | method | value
Cc1cc(C)cc(Cn2c(=O)ccn(CC#N)c2=O)c1 | - | >464 µM
CC(C)CC(=O)N[C@H](C(=O)N[C@@H](Cc1ccccc1)[C@H]1O[C@H]1CC(=O)NC(Cc1ccccc1)C(C)C)C(C)(C)S(C)(=O)=O | - | >10 µM
OCCNc1nc(-c2cccs2)cc(-c2cccs2)n1 | - | 100 µM
Cc1ccc(Cn2c(=O)ccn(CC#N)c2=O)cc1C | - | 434 µM
COC(=O)[C@H](C)NP(=O)(OC[C@@H]1OC[C@H](n2cc(C)c(=O)[nH]c2=O)O1)Oc1ccc(Br)cc1 | MTT | 32 µM
Cc1cn([C@H]2C=C[C@@H](COC(=O)NCCc3ccc(Br)cc3)O2)c(=O)[nH]c1=O | tetrazolium | >100 µM
Nc1ncnc2c1ncn2[C@H]1O[C@@H](CO)CC1(F)F | - | >100 µM
NCCNc1nc(-c2ccco2)cc(-c2cc3ccccc3s2)n1 | - | 10 µM